Measured values from several laboratories, pooled; numbers as filed in NIAID ChemDB.

Shared fields: whole-cell or culture tests; organism: Mycobacterium tuberculosis

Blank or dashed fields: not listed here. A number after MIC or MFC names an inhibition level or a share of isolates. MIC bound: limit read from a one-dose screen. Two numbers with a dash give a range or band. ECn is the concentration giving n% inhibition of infection, replication or growth. Inhibition is in % at the dose shown (toxicity tests: loss of growth or viability). Conditions beyond the fields shown may differ between rows.

structure	strain	measure	dose	cell line	read by	result
CCCc1cc(=O)oc2c3c(cc(OC)c12)O[C@H](C)[C@H](C)C3O	H37Ra	MIC	-	-	-	>128 µg/mL
O=C(CCC(F)(F)F)N1CC(c2ccc(C(F)(F)F)nc2)C1	H37Rv	EC50	-	THP-1	fluorescence	0.25–0.5 µM
Cc1c(C(=O)NCC[Si](C)(C)C)nn(-c2ccc(Cl)cc2Cl)c1-c1ccc(Cl)cc1	H37Rv	MIC	-	-	absorbance	>100 µg/mL
CCCc1cc(=O)oc2c(C(=O)CC)c(OCOC)c3c(c12)OC(C)(C)CC3	H37Ra	MIC	-	-	-	>128 µg/mL
Fc1cc(Cl)ccc1N=C1/C(=C/c2ccco2)CNC/C1=C\c1ccco1	H37Rv	MIC	-	-	agar / visual reading	1.56 µg/mL
O=C(CCC(F)(F)F)N1CC(C2CCOCC2)C1	H37Rv	EC50	-	THP-1	fluorescence	0.05–0.25 µM
NNC(=S)NN=C1/C(=C/c2ccco2)CNC/C1=C\c1ccco1	H37Rv	MIC	-	-	agar / visual reading	3.125 µg/mL
O=C(CCC(F)(F)F)N1CC(c2ccc(F)cc2C(F)(F)F)C1	H37Rv	EC50	-	THP-1	fluorescence	0.05–0.25 µM
COc1ccc(OC)c(/C=C/C(=O)c2cc3c(cc2O)OC2(CCN(C(=O)OC(C)(C)C)CC2)CC3=O)c1	H37Rv	MIC	-	-	agar	>25 µg/mL
Clc1ccc(-c2c(C(c3ccccc3)n3ccnc3)cnn2-c2ccc(Cl)cc2)cc1	ATCC 35820 (streptomycin-resistant)	MIC50	-	-	-	≥100 µM
C/C(=N/NC(=S)NCc1ccccc1)c1nccnc1C	CS-R	MIC	-	-	-	0.8 µg/mL
CCC1CN(c2c(F)cc3c(=O)c(C(=O)O)cn(C4CC4)c3c2OC)CCN1	Isolate TN5702	MIC	-	-	-	0.4 µg/mL
O=C(/C=C/c1ccccc1Cl)c1cc2c(cc1O)OC1(CCCCC1)CC2=O	H37Rv	MIC	-	-	agar	25 µg/mL
Cc1c(Cl)cccc1NC(=O)N/N=C/c1ccccc1[N+](=O)[O-]	-	EC50	-	-	-	>6.25 µg/mL
C/C=C(/C)C(=O)O[C@H]1CC[C@@]2(C)[C@@H]3CC[C@H]4[C@]5(O)C[C@H](O)[C@@]6(O)[C@@H](CN7C[C@@H](C)CCC7[C@@]6(C)O)[C@]5(O)C[C@@]42O[C@]13O	H37Rv	MIC bound	-	-	BACTEC	>12.8 µg/mL
O=C(CCC(F)(F)F)N1CC(c2ccc(F)cc2Cl)C1	H37Rv	EC50	-	THP-1	fluorescence	0.05–0.25 µM
N#CCCSC(=S)N1CCCC1=O	H37Rv	MIC	-	-	BACTEC	32 µg/mL
Clc1ccc(-n2ncc(C(c3ccccc3)n3ccnc3)c2-c2ccccc2Cl)c(Cl)c1	ATCC 35820 (streptomycin-resistant)	MIC90	-	-	-	100 µM
C[Si]1(C)CCN(C(=O)c2nn(-c3ccc(Cl)cc3Cl)c(-c3ccc(Cl)cc3)c2CO)CC1	H37Rv	MIC	-	-	absorbance	>100 µg/mL
CC(=O)Nc1ccc(NC(=O)N/N=C/c2ccccc2[N+](=O)[O-])cc1	-	EC50	-	-	-	<6.25 µg/mL
NNC(=O)c1ccncc1	ATCC 35822 (isoniazid-resistant)	MIC90	-	-	-	≥100 µM
O=C(CCC(F)(F)F)N1CC(c2cccnc2)C1	H37Rv	EC50	-	THP-1	fluorescence	1–10 µM
COc1cc2c(c3c1c(=O)c1cc(F)ccc1n3C)C=CC(C)(C)O2	H37Rv	MIC	-	-	BACTEC	≥12.5 µg/mL
CC1COc2c(N3CCN(C)CC3)c(F)cc3c(=O)c(C(=O)O)cn1c23	ATCC 35822 (isoniazid-resistant)	MIC50	-	-	-	1.6 µM
CCCc1cc(=O)oc2c(C(=O)CC)c(OC(C)C)cc(OC(C)C)c12	H37Ra	MIC	-	-	-	>128 µg/mL
ONC(=S)NN=C1/C(=C/c2ccco2)CNC/C1=C\c1ccco1	H37Rv	MIC	-	-	agar / visual reading	3.125 µg/mL
CCOC(=O)c1cn(Cc2nn(-c3ccc(Cl)cc3Cl)c(-c3ccc(Cl)cc3)c2C)nn1	H37Rv	MIC	-	-	absorbance	>100 µg/mL
NC(=O)C1CCCN1C(=O)c1cccnc1	H37Rv	MIC bound	-	-	BACTEC	>12.5 µg/mL
CCCc1cc(=O)oc2c(C(=O)CC)c(O)c3c(c12)OC(C)(C)C=C3	H37Ra	MIC	-	-	-	128 µg/mL
COc1c(O)c(OC)c2oc(-c3ccc(O)cc3)cc(=O)c2c1O	H37Ra	MIC	-	-	-	100 µg/mL
CC[C@@H](CO)NCCN[C@@H](CC)CO	MDR3	MIC	-	-	broth dilution / resazurin	128 µg/mL
CC[C@@H](CO)NCCN[C@@H](CC)CO	H37Rv	MIC	-	-	agar / visual reading	3.125 µg/mL
CC(=O)C(N=Nc1cccc2c1C(=O)c1ccccc1C2=O)C(=O)Nc1ccccc1C	H37Rv	inhibition	12.5 µg/mL	-	BACTEC	-5%
O=C(CCC(F)(F)F)N1CC(c2ccnc(C(F)(F)F)c2)C1	H37Rv	EC50	-	THP-1	fluorescence	0.05–0.25 µM
CO[C@H]1/C=C/O[C@@]2(C)Oc3c(C)c(O)c4c(c3C2=O)C(=O)C(N2CCC(=O)CC2)=C(NC(=O)/C(C)=C\C=C\[C@H](C)[C@H](O)[C@@H](C)[C@@H](O)[C@@H](C)[C@H](OC(C)=O)[C@@H]1C)C4=O	H37Rv	MIC	-	-	-	0.0025 µg/mL
CCCCC1C/C=C/C=C/C=C/C=C/C(OC2OC(C)C(O)C(N)C2O)CC2OC(O)(CC(O)CC3OC3/C=C/C(=O)O1)CC(O)C2C(=O)O	H37Rv	MIC bound	-	-	BACTEC	>12.8 µg/mL
Cc1c(Cl)cccc1NC(=O)N/N=C/c1cccc([N+](=O)[O-])c1	-	EC50	-	-	-	<6.25 µg/mL
Cc1c(C(=O)N2CC[Si](C)(C)CC2)nn(-c2ccc(Cl)cc2Cl)c1-c1ccc(Cl)cc1	H37Rv	MIC	-	-	absorbance	>100 µg/mL
Cc1c(Cl)cccc1NC(=O)N/N=C/c1ccc(N(C)C)cc1	-	EC50	-	-	-	>6.25 µg/mL
CC1(C)[C@@H](O)CC[C@]2(C)[C@H]3C(=O)C=C4[C@H]5C[C@@](C)(C(=O)O)CC[C@]5(C)CC[C@@]4(C)[C@]3(C)CC[C@@H]12	H37Rv	inhibition	128 µg/mL	-	BACTEC	71%
COc1ccccc1/C=N/NC(=O)Cc1csc2nc(-c3ccccc3)cn12	H37Rv	inhibition	12.5 µg/mL	-	-	73%
O=C(CCC(F)(F)F)N1CC(c2ccc(C(F)(F)F)cc2)C1	H37Rv	EC50	-	THP-1	fluorescence	0.25–0.5 µM
CN1c2ccc(C3N(C(=O)C(F)(F)F)C=CN3C(=O)C(F)(F)F)cc2Sc2cc(C3N(C(=O)C(F)(F)F)C=CN3C(=O)C(F)(F)F)ccc21	H37Rv	MIC	-	-	-	12.5 µg/mL
CO[C@H]1/C=C/O[C@@]2(C)Oc3c(C)c(O)c4c(c3C2=O)C(=O)C(N2CCC(=NNS(=O)(=O)c3ccc(C)cc3)CC2)=C(NC(=O)/C(C)=C\C=C\[C@H](C)[C@H](O)[C@@H](C)[C@@H](O)[C@@H](C)[C@H](OC(C)=O)[C@@H]1C)C4=O	H37Rv	MIC	-	-	-	0.0025 µg/mL
O=C(Cc1csc2nc(-c3ccccc3)cn12)N/N=C/c1ccc([N+](=O)[O-])cc1	H37Rv	EC50	-	-	-	<12.5 µg/mL
CO[C@H]1/C=C/O[C@@]2(C)Oc3c(C)c(OC(C)=O)c4c(c3C2=O)C(=O)C=C(NC(=O)/C(C)=C\C=C\[C@H](C)[C@H](OC(C)=O)[C@@H](C)[C@@H](O)[C@@H](C)[C@H](OC(C)=O)[C@@H]1C)C4=O	H37Rv	inhibition	12.5 µg/mL	-	BACTEC	99%
Cc1c(C(=O)N2CCCCC2)nn(-c2ccc(Cl)cc2Cl)c1-c1ccc(Cl)cc1	H37Rv	MIC	-	-	absorbance	>200 µg/mL
CO[C@H]1/C=C/O[C@@]2(C)Oc3c(C)c(O)c4c(O)c(c(/C=N/N5CCN(C)CC5)c(O)c4c3C2=O)NC(=O)/C(C)=C\C=C\[C@H](C)[C@H](O)[C@@H](C)[C@@H](O)[C@@H](C)[C@H](OC(C)=O)[C@@H]1C	H37Rv ATTC 27294	MIC	-	-	resazurin	0.06 µg/mL
C[N+](C)(C)CC(=O)N/N=C/c1oc(-c2c(O)ccc3ccccc23)c(-c2c(O)ccc3ccccc23)c1[N+](=O)[O-].[Cl-]	H37Rv	inhibition	12.5 µg/mL	-	BACTEC	11%
Fc1ccc(-c2c(C(c3ccccc3)n3ccnc3)cnn2-c2ccc(F)cc2)cc1	ATCC 35822 (isoniazid-resistant)	MIC90	-	-	-	≥100 µM
NNC(=O)N=C1/C(=C/c2ccco2)CNC/C1=C\c1ccco1	H37Rv	MIC	-	-	agar / visual reading	6.25 µg/mL
Cn1cc(NC(=O)c2cc(NC(=O)c3cc(NC=O)cn3C)cn2C)cc1C(=O)NCCC(=N)N	EMB-R	MIC	-	-	-	6.4 µg/mL
CCc1c(Cl)c(OCCCn2cc(CCN3CCC(N)CC3)nn2)c(Cl)c(OCCCn2cc(CCN3CCC(N)CC3)nn2)c1C(=O)OC1C(C)OC(OC/C2=C\C=C\C[C@H](O)/C(C)=C/[C@H](CC)[C@H](OC3OC(C)(C)C(OC(=O)C(C)C)C(O)C3O)/C(C)=C/C(C)=C/C[C@@H]([C@@H](C)O)OC2=O)C(OC)C1O	H37Ra	MIC	-	-	visual reading	4 µg/mL
CC(=O)Nc1ccc(NC(=O)N/N=C/c2ccc([N+](=O)[O-])cc2)cc1	-	EC50	-	-	-	<6.25 µg/mL
CON=C1CCN(C2=C3NC(=O)/C(C)=C\C=C\[C@H](C)[C@H](O)[C@@H](C)[C@@H](O)[C@@H](C)[C@H](OC(C)=O)[C@H](C)[C@@H](OC)/C=C/O[C@@]4(C)Oc5c(C)c(O)c(c(c5C4=O)C2=O)C3=O)CC1	H37Rv	MIC	-	-	-	0.00125 µg/mL
O=C(CCC(F)(F)F)N1CC(c2ccc(F)cc2)C1	H37Rv	EC50	-	THP-1	fluorescence	<0.05 µM
O=C(N/N=C/c1ccccc1O)c1ccccc1-n1cccc1	H37Rv	MIC bound	-	-	BACTEC	>12.5 µg/mL
O=C(/C=C/c1ccccc1F)c1cc2c(cc1O)OC1(CCCCC1)CC2=O	H37Rv	MIC	-	-	agar	12.5 µg/mL
Clc1ccc(-c2c(C(c3ccccc3)n3ccnc3)cnn2-c2ccc(Cl)cc2Cl)cc1	ATCC 35837 (ethambutol-resistant)	MIC50	-	-	-	≥100 µM
C#CCOc1c2c(c3c(CCC)cc(=O)oc3c1C(=O)CC)OC(C)(C)C=C2	H37Ra	MIC	-	-	-	128 µg/mL
CCOC(=O)CNC(=O)c1nn(-c2ccc(Cl)cc2Cl)c(-c2ccc(Cl)cc2)c1C	H37Rv	MIC	-	-	absorbance	>100 µg/mL
CCCc1cc(=O)oc2c(C(=O)CC)c(OC(C)=O)c3c(c12)OC(C)(C)CC3	H37Ra	MIC	-	-	-	>128 µg/mL
Fc1ccc(-c2c(C(c3ccccc3)n3ccnc3)cnn2-c2ccc(F)cc2F)cc1	ATCC 27294	MIC50	-	-	-	21.1 µM
CC/C(=C1\C=C(O)C(=O)C=C1OC)c1ccc(OC)cc1	H37Rv	MIC bound	-	-	BACTEC	>12.5 µg/mL
Cc1c(CN2CCN(C)CC2)cc(-c2ccc(Cl)cc2)n1-c1ccc(Cl)cc1	CIP103471	MIC	-	-	-	0.7 µg/mL
C[N+](C)(C)/C=C/c1ccc([N+](=O)[O-])o1.[Br-]	H37Rv	inhibition	12.5 µg/mL	-	BACTEC	5%
Cc1c(C(=O)NC2(C#N)CCCC2)nn(-c2ccc(Cl)cc2Cl)c1-c1ccc(Cl)cc1	H37Rv	MIC	-	-	absorbance	>100 µg/mL
O=C(Cc1csc2nc(-c3ccccc3)cn12)N/N=C/c1ccccc1O	H37Rv	MIC	-	-	-	>12.5 µg/mL
C/C=C/COc1cc2c(c3oc(=O)cc(CCC)c13)C(O)[C@@H](C)[C@@H](C)O2	H37Ra	MBC	-	-	-	>64 µg/mL
CC(=O)c1cccc(NC(=O)C(=O)NNc2n[nH]c(=S)n2N)c1	H37Rv	MIC	-	-	BACTEC	12.5 µg/mL
CC(C)(C)OC(=O)N1CCC2(CC1)CC(=O)c1cc(C(=O)/C=C/c3ccccc3)c(O)cc1O2	H37Rv	MIC	-	-	agar	>25 µg/mL
O=C1C=C(Nc2cccc(NC3=CC(=O)C(=O)c4ccccc43)n2)c2ccccc2C1=O	H37Rv	MIC	-	-	BACTEC	3.13 µg/mL
NC(=S)N=C1/C(=C/c2ccco2)CNC/C1=C\c1ccco1	H37Rv	MIC	-	-	agar / visual reading	1.56 µg/mL
CC(=O)Nn1c(N)nc2cc(C)ccc21	H37Rv	inhibition	12.5 µg/mL	-	BACTEC	10%
COc1cccc(/C=N/NC(=O)Cc2csc3nc(-c4ccccc4)cn23)c1	H37Rv	EC50	-	-	-	>12.5 µg/mL
COC(=O)/C=C/C1(CCC(=O)OC)N=C(c2ccccc2)OC1=O	H37Rv	MIC bound	-	-	BACTEC	>12.5 µg/mL
Fc1ccccc1-c1c(C(c2ccccc2)n2ccnc2)cnn1-c1ccccc1	ATCC 35837 (ethambutol-resistant)	MIC50	-	-	-	≥100 µM
C=S(=C)(Nc1ccc(-c2csc(N3C(=O)/C(=C/c4ccccc4[N+](=O)[O-])N=C3c3ccccc3)n2)cc1)c1ccc(OC)c(Cl)c1	H37Rv	inhibition	6.25 µg/mL	-	resazurin	10%
O=C(CCC(F)(F)F)N1CC(c2ccc(OC(F)(F)F)cc2)C1	H37Rv	EC50	-	THP-1	fluorescence	0.25–0.5 µM